Results of unrelated studies side by side (data: NIAID ChemDB).

Common to all: whole-cell or culture tests; species: Mycobacterium aurum

ECn: concentration that inhibits the pathogen or its effect by n%.

smiles | read by | strain or isolate | changes | measure | result
CC(=O)O[C@@H]1[C@@H](O)C2=C(C(=O)OC2)[C@@]2(C)CCCC(C)(C)[C@H]12 | - | - | - | MIC | >128 µg/mL
CO[C@H]1/C=C/O[C@@]2(C)Oc3c(C)c(O)c4c(O)c(c(/C=N/N5CCN(C)CC5)c(O)c4c3C2=O)NC(=O)/C(C)=C\C=C\[C@H](C)[C@H](O)[C@@H](C)[C@@H](O)[C@@H](C)[C@H](OC(C)=O)[C@@H]1C | - | A+ | - | EC90 | 0.57 µg/mL
CCC1CN(c2c(F)cc3c(=O)c(C(=O)O)cn(C4CC4)c3c2OC)CCN1 | - | ATCC23366 | - | MIC | 0.06 µg/mL
COc1nc2ccc(Br)cc2cc1[C@@H](c1ccccc1)[C@@](O)(CCN(C)C)c1cccc2ccccc12 | resazurin | - | C410 deletion | MIC | 0.04 µg/mL
CCCCC/C=C\C/C=C\CCCCCCCC(=O)O | - | - | - | MIC | 4 µg/mL
Cn1c2c3ccccc3nc-2cc2ccccc21 | - | - | - | MIC | 2 µg/mL
O=C(O)c1cn(C2CC2)c2cc(N3CCNCC3)c(F)cc2c1=O | broth dilution / turbidity | SB66 | - | MIC | 0.02 µg/mL
C=C1[C@@H]2[C@@H](O)C=C(C=O)[C@](O)(C=O)[C@@]2(C)CC[C@@H]1C | - | - | - | MIC | >128 µg/mL
CC1CN(c2cc3c(cc2F)c(=O)c(C(=O)O)cn3C(C)(C)C)CCN1 | - | ATCC23366 | - | MIC | 0.06 µg/mL
CC1(C)CCC[C@@]2(C)[C@H]1[C@@H](O)C=C(C=O)[C@]2(O)C=O | - | - | - | MIC | >128 µg/mL
CN[C@@H]1[C@H](O[C@H]2[C@H](O[C@H]3[C@H](O)[C@@H](O)[C@H](N=C(N)N)[C@@H](O)[C@@H]3N=C(N)N)O[C@@H](C)[C@]2(O)C=O)O[C@@H](CO)[C@H](O)[C@H]1O | - | A+ | - | MIC | 0.25 µg/mL
C[C@@H]1CN(c2cc3c(cc2F)c(=O)c(C(=O)O)cn3C(C)(C)C)C[C@H](C)N1 | - | ATCC23366 | - | MIC | 0.06 µg/mL
NNC(=O)c1ccncc1 | - | - | - | MIC | 2 µg/mL
CCN1CCN(c2c(F)cc3c(=O)c(C(=O)O)cn(C4CC4)c3c2OC)CC1 | - | ATCC23366 | - | MIC | 0.06 µg/mL
C[n+]1cc2c3c(ccc2c2ccc4cc5c(cc4c21)OCO5)OCO3 | - | - | - | MIC50 | 9.61 µg/mL

The first 2 rows once more:

smiles	read by	strain or isolate	changes	measure	result
CC(=O)O[C@@H]1[C@@H](O)C2=C(C(=O)OC2)[C@@]2(C)CCCC(C)(C)[C@H]12	-	-	-	MIC	>128 µg/mL
CO[C@H]1/C=C/O[C@@]2(C)Oc3c(C)c(O)c4c(O)c(c(/C=N/N5CCN(C)CC5)c(O)c4c3C2=O)NC(=O)/C(C)=C\C=C\[C@H](C)[C@H](O)[C@@H](C)[C@@H](O)[C@@H](C)[C@H](OC(C)=O)[C@@H]1C	-	A+	-	EC90	0.57 µg/mL

A number after MIC or MFC names an inhibition level or a share of isolates. Lines come from different laboratories, so protocols vary. Blank or dashed fields: not listed here.